Mutational interference map of HIV-1 RNA dimerization

Values reported by Ye et al. 2022 (doi:10.1038/s41594-022-00746-2).

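Mutant RNA libraries with 1G, 2G or 3G starts, with or without cap, were folded at 37 °C for 30 min. High salt was 300 mM KCl and 5 mM MgCl2, low salt 40 mM KCl and 0.1 mM MgCl2; monomer and dimer were parted on a native gel. Kdimer compares mutation frequencies in monomer and dimer, corrected for sequencing errors.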

The 5' region of HIV-1 NL4-3 RNA (positions 1-437):
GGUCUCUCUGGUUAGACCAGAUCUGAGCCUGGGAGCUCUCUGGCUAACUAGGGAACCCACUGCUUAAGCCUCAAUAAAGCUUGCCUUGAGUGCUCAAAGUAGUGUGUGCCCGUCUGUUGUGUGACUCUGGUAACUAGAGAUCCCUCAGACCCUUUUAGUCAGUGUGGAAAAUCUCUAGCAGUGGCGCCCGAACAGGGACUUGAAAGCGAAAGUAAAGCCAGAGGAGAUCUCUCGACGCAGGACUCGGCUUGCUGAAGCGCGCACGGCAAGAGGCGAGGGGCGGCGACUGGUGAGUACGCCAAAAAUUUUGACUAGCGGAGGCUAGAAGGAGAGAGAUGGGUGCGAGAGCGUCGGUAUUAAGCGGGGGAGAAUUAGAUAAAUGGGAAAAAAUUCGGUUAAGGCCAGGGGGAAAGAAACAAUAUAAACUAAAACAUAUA

Values are log2 Kdimer, the median over the changes at each position: higher means that changes there hinder dimer formation, below 0 that they favour it. One numbering serves 1G, 2G and 3G. A position is written with its base.

position	1G capped high-salt	1G uncapped low-salt
G310	0.16	-0.09
A311	0.36	0.75
C312	0.20	0.23
U313	0.79	1.63
A314	0.21	-0.21
G315	0.12	0.20
C316	-0.02	0.37
G317	0.19	0.12
G318	0.06	0.02
A319	0.13	0.05
G320	0.05	-0.13
G321	0.28	0.75
C322	0.20	0.47
U323	0.65	0.42
A324	0.26	0.63
G325	0.21	0.50
A326	0.08	-0.09
A327	0.15	0.25
G328	-0.02	-0.09
G329	0.02	-0.09
A330	0.11	0.22
G331	-0.05	0.01
A332	-0.01	0.31
G333	0.03	-0.37
A334	0.11	0.35
G335	0.20	0.25
A336	0.05	0.49
U337	0.20	-0.28
G338	0.05	0.30
G339	0.19	0.69
G340	-0.03	0.06
U341	0.10	0.04
G342	0.21	-0.12
C343	0.03	-0.16
G344	-0.03	-0.43
A345	0.24	0.36
G346	0.15	0.10
A347	0.36	0.53
G348	-0.16	-0.43
C349	-0.21	-0.24
G350	-0.03	0.01
U351	0.00	0.05
C352	0.02	-0.10
G353	0.04	-0.08
G354	-0.03	-0.59
U355	0.03	0.29
A356	0.10	-0.06
U357	0.00	0.13
U358	0.01	-0.07
A359	0.03	0.02
A360	-0.05	-0.24
G361	0.10	-0.22
C362	0.24	-0.10
G363	0.21	0.16
G364	-0.07	-0.30
G365	0.06	0.01
G366	0.03	0.12
G367	0.19	0.09

The opening 4 entries, copied out:

position,1G capped high-salt,1G uncapped low-salt
G310,0.16,-0.09
A311,0.36,0.75
C312,0.20,0.23
U313,0.79,1.63